Compound potency records, mixed from different reports. Data source: NIAID ChemDB in PubChem.

Shared fields: whole-cell or culture tests; species: Herpes simplex virus 2; cell line: HEL; measure: EC50

Conditions beyond the fields shown may differ between rows.

NC1=Nn2c(nnc2-c2cn(-c3ccccc3)nc2-c2ccccc2)SC1 ; strain: G ; method: cytopathic effect ; result: >16 µg/mL
Cc1cn([C@H]2C=C[C@@H](OC(C(=O)O)P(=O)(O)O)C2)c(=O)[nH]c1=O ; strain: G ; method: cytopathic effect ; result: >250 µM
O=c1[nH]c(=O)n([C@H]2C[C@H](O)[C@@H](CO)O2)cc1/C=C/Br ; strain: HS-44 (TK-) ; method: cytopathic effect ; result: >150 µM
CCCCCCC#Cc1cn(S(=O)(=O)c2ccc(C)cc2)c(=O)[nH]c1=O ; strain: G ; method: cytopathic effect ; result: >200 µM
O=C(O)CP(=O)(O)O ; strain: UW-268 ; method: plaque count ; result: 39 µM
Cc1ccc(S(=O)(=O)n2cc(I)c(=O)[nH]c2=O)cc1 ; strain: G ; method: cytopathic effect ; result: >200 µM
Nc1nc2c(ncn2COCCO)c(=O)[nH]1 ; strain: UW-268 ; method: plaque count ; result: 0.67 µM
O=c1c2ncn(COCCO)c2nc2[nH]c(-c3ccccc3)c(Cc3ccc(F)cc3)n12 ; strain: G ; method: cytopathic effect ; result: >16 µg/mL
Cc1cn([C@@H]2C[C@H](OC(C(=O)O)P(=O)(O)O)[C@@H](O)[C@H]2O)c(=O)[nH]c1=O ; strain: G ; method: cytopathic effect ; result: >250 µM
CCCCCCC#Cc1c[nH]c(=O)[nH]c1=O ; strain: G ; method: cytopathic effect ; result: >200 µM
O=c1c2ncn(COCCO)c2nc2[nH]c(-c3ccc(F)cc3)cn12 ; strain: LYONS ; method: cytopathic effect ; result: >16 µg/mL
Cc1ccc(/C=N/NC(=O)c2ccccc2S(=O)(=O)NC(C)C)cc1 ; strain: G ; method: cytopathic effect ; result: >100 µM
Nn1c(SCC(=O)O)nnc1-c1cn(-c2ccccc2)nc1-c1ccccc1 ; strain: G ; method: cytopathic effect ; result: >80 µg/mL
Nc1nc2c(ncn2COC(CO)CO)c(=O)[nH]1 ; strain: HS-47 (TK+) ; method: cytopathic effect ; result: 0.0056 µM
O=c1c2ncn(COCCO)c2nc2[nH]c(-c3ccccc3)c(Cc3ccccc3)n12 ; strain: 196 ; method: cytopathic effect ; result: >16 µg/mL
c1ccc(-c2nn3c(-c4cn(-c5ccccc5)nc4-c4ccccc4)nnc3s2)cc1 ; strain: G ; method: cytopathic effect ; result: >3.2 µg/mL
COc1ccc(-c2[nH]c3nc4c(ncn4COCCO)c(=O)n3c2C)cc1 ; strain: 196 ; method: cytopathic effect ; result: 1.92 µg/mL
CC(C)NS(=O)(=O)c1ccccc1C(=O)N/N=C/c1ccc(F)cc1 ; strain: G ; method: cytopathic effect ; result: >100 µM
Nc1ccn(C[C@@H](CO)OCP(=O)(O)O)c(=O)n1 ; strain: HS-47 (TK+) ; method: cytopathic effect ; result: 1.5 µM
Nc1ccn(C[C@@H](CO)OCP(=O)(O)O)c(=O)n1 ; strain: G ; method: cytopathic effect ; result: 2 µM
CCOC(=O)C1=CSc2nnc(-c3cn(-c4ccccc4)nc3-c3ccccc3)n2N=C1N ; strain: G ; method: cytopathic effect ; result: >16 µg/mL
CCCCC#Cc1cn(S(=O)(=O)c2ccc(C)cc2)c(=O)[nH]c1=O ; strain: G ; method: cytopathic effect ; result: >40 µM
CC(C)NS(=O)(=O)c1ccccc1-c1n[nH]c(=S)o1 ; strain: G ; method: cytopathic effect ; result: >100 µM

The first 2 rows once more:

SMILES,strain,method,result
NC1=Nn2c(nnc2-c2cn(-c3ccccc3)nc2-c2ccccc2)SC1,G,cytopathic effect,>16 µg/mL
Cc1cn([C@H]2C=C[C@@H](OC(C(=O)O)P(=O)(O)O)C2)c(=O)[nH]c1=O,G,cytopathic effect,>250 µM

ECn is the concentration giving n% inhibition of infection, replication or growth.